Results from article PMC8388771, “Cationic Peptidomimetic Amphiphiles Having a N-Aryl- or N-Naphthyl-1,2,3-Triazole Core Structure Targeting Clostridioides (Clostridium) difficile: Synthesis, Antibacterial Evaluation, and an In Vivo C. difficile Infection Model” (Antibiotics, 2021).

Tested on: human erythrocytes
Assay: Hemolysis assay, HC50 determination
Assay type: cell-based
Experimental: Hemolysis assay (human erythrocytes)–HC50 determination. These were performed as described previously.

Row | Structure (SMILES) | hemolytic activity against human erythrocytes relative to IC50 values against C. difficile [fold]
1 | CC(C)CCc1cn(-c2c(OCC(=O)N[C@H](CCCCN)C(=O)N[C@H](CCCNC(=N)N)Cn3cc(Cc4ccccc4)nn3)ccc3ccccc23)nn1.Cl.Cl [Compound 42] | 2
2 | CC(C)CCc1cn(-c2c(OCC(=O)N[C@H](CCCCN)C(=O)N[C@H](CCCNC(=N)N)Cn3cc(C4CCCCC4)nn3)ccc3ccccc23)nn1.Cl.Cl [Compound 40, (R)-6-Amino-N-((R)-1-(4-cyclohexyl-1H-1,2,3-triazol-1-yl)-5-guanidinopentan-2-yl)-2-(2-((1-(4-isopentyl-1H-1,2,3-triazol-1-yl)naphthalen-2-yl)oxy)acetamido)hexanamide dihydrochloride] | 2
